Data as given in PubChem BioAssay AID624099 (ICCB-Longwood, 2012)
This is a random part of about 21,000 reagents. 497 of them (2.4%) were called active. 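Higher z means weaker E2 silencing; only reporter increases were scored, and knock-downs that hurt cell survival may mask genuine repressor factors.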 Entries without a mark were called inactive. Reagents against one gene are numbered here.

Screen: 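Host factors E2 relies on to silence an HPV18 LCR reporter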 (primary screen)
Cell system: human C33A cervical carcinoma cells (HPV-negative) stably expressing BPV1 E2 and an HPV18 LCR luciferase reporter
Reagents: siRNA pool against human genes, 40 nM
Timing: 72 h
Measurement: 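Per-well luciferase luminescence, z-scored on each plate against the plate mean and SD with control wells left out, then averaged across three replicate plates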
Reading the numbers: mean z-score and z-score: higher = stronger reporter signal, weaker E2 silencing
Hit rule: 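Mean z ≥ 2 together with z ≥ 2 in two or more of the three replicates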

LOC389427 (retired record) → mean z-score: -0.45; z-score, replicate A: -0.06; z-score, replicate B: -0.86; z-score, replicate C: -0.42
TTC31 → mean z-score: 0.31; z-score, replicate A: 0.28; z-score, replicate B: -0.02; z-score, replicate C: 0.69
LOC401119 (retired record) → mean z-score: -0.43; z-score, replicate A: 0.22; z-score, replicate B: -0.61; z-score, replicate C: -0.91
OPN4 → mean z-score: -1.51; z-score, replicate A: -1.5; z-score, replicate B: -1.49; z-score, replicate C: -1.53
ATP2A3 → mean z-score: -0.14; z-score, replicate A: -0.33; z-score, replicate B: -0.15; z-score, replicate C: 0.07
CA1 → mean z-score: -0.31; z-score, replicate A: -0.41; z-score, replicate B: -0.27; z-score, replicate C: -0.25
RNF144B → mean z-score: 0.36; z-score, replicate A: 0.7; z-score, replicate B: 0.3; z-score, replicate C: 0.07
RAPH1 → mean z-score: 0.05; z-score, replicate A: 0.25; z-score, replicate B: 0.05; z-score, replicate C: -0.16
CELSR1 → mean z-score: -0.59; z-score, replicate A: -0.55; z-score, replicate B: -0.37; z-score, replicate C: -0.86
PRR12 → mean z-score: -0.91; z-score, replicate A: -1.27; z-score, replicate B: -0.85; z-score, replicate C: -0.61
SCARB1 → mean z-score: -0.29; z-score, replicate A: -0.23; z-score, replicate B: -0.27; z-score, replicate C: -0.37
SEPTIN2 → mean z-score: 2.33 (active); z-score, replicate A: 2.47; z-score, replicate B: 2.06; z-score, replicate C: 2.47
RET → mean z-score: -0.01; z-score, replicate A: -0.01; z-score, replicate B: -0.14; z-score, replicate C: 0.12
CCT8 → mean z-score: -1.03; z-score, replicate A: -0.53; z-score, replicate B: -1.11; z-score, replicate C: -1.45

Quoted from the entries so far, 3 entries:
PRR12 → mean z-score: -0.91; z-score, replicate A: -1.27; z-score, replicate B: -0.85; z-score, replicate C: -0.61
SCARB1 → mean z-score: -0.29; z-score, replicate A: -0.23; z-score, replicate B: -0.27; z-score, replicate C: -0.37
SEPTIN2 → mean z-score: 2.33 (active); z-score, replicate A: 2.47; z-score, replicate B: 2.06; z-score, replicate C: 2.47

The list goes on:
ARHGAP4 → mean z-score: 0.42; z-score, replicate A: 0.39; z-score, replicate B: 0.51; z-score, replicate C: 0.36
PPP1R12B → mean z-score: -1.01; z-score, replicate A: -0.88; z-score, replicate B: -1.21; z-score, replicate C: -0.93
PLIN2 → mean z-score: -1.21; z-score, replicate A: -1.41; z-score, replicate B: -1.26; z-score, replicate C: -0.98
DNAH6 #1 → mean z-score: -0.12; z-score, replicate A: 0.05; z-score, replicate B: -0.29; z-score, replicate C: -0.14
DNAH6 #2 → mean z-score: 0.85; z-score, replicate A: 0.79; z-score, replicate B: 0.71; z-score, replicate C: 1.06
DNAH6 #3 → mean z-score: -0.15; z-score, replicate A: 0.04; z-score, replicate B: -0.27; z-score, replicate C: -0.22
DNAH6 #4 → mean z-score: 1.04; z-score, replicate A: 1.01; z-score, replicate B: 1.05; z-score, replicate C: 1.05
